Data as given in PubChem BioAssay AID1224833 (University of Georgia, 2016)
The whole screen tested about 12,000 reagents; shown is a part drawn at random. About 5,600 of them (46%) count as active. 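Active calls cover z-scores past 1 in both directions, so they include lowered as well as raised rotavirus replication.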 Reagent sequences are not shown.

Assay: 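Human genes whose knock-down alters rotavirus replication in monkey cells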 (primary screen)
Cells: monkey MA104 kidney cells
Reagents: siRNA pool against human genes, 50 nM
Time to read-out: 48 h knock-down before infection; read 24 h after infection
Treatment: infection with rotavirus strain RV3 two days after transfection; infectious dose for this stage not given
Read-out: 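z-score of rotavirus antigen signal per well, from a fluorescent immunoassay, relative to non-targeting control wells on the same plate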
Scale: z-score vs non-targeting control: higher = more rotavirus replication than with non-targeting control
Active means: In these data the active calls have z-score vs non-targeting control at about -1 or lower, or at about 1 or higher
Calls: active = z-score beyond 1 either way; inactive = z-score within 1 of zero

no.	Target gene	z-score vs non-targeting control	outcome
1	IMP3	-1.19	active
2	MRPS6	-2.23	active
3	HACD3	0.0972	inactive
4	UGT1A3	-0.809	inactive
5	WDR12	1.28	active
6	S100A7	-1.17	active
7	SLC25A15	-0.344	inactive
8	SLC28A2	-2.5	active
9	TNS1	1.09	active
10	OR2B3	-1.68	active
11	OR6K2	-1.67	active
12	PCDH18	-0.075	inactive
13	PCDH9	-1.02	active
14	TOR4A	-1.92	active
15	ADAM21	1.49	active
16	COQ10B	0.918	inactive
17	ZDHHC21	0.704	inactive
18	MYO9B	0.135	inactive
19	CASR	2.21	active
20	BCCIP	-0.997	inactive
21	GLOD4	-1.41	active
22	ISG20L2	-1.55	active
23	EGFL6	1.29	active
24	RANBP10	-0.777	inactive
25	CSTA	-0.929	inactive
26	ATOH8	-0.449	inactive
27	IGFL4	0.129	inactive
28	GRPEL1	-0.156	inactive
29	C5AR2	2.37	active
30	INSL3	-0.956	inactive
31	SLC2A4	-2.23	active
32	GBP3	0.821	inactive
33	HSFY1	1.17	active
34	AQP12A	-0.138	inactive
35	NSMF	1.5	active
36	TBX5	0.178	inactive
37	OR4C3	0.293	inactive
38	DAXX	-1.66	active
39	TRMT9B	-1.95	active
40	WNT3	-0.946	inactive
41	SLC6A3	-1.59	active
42	IRF8	-1.22	active
43	MYOF	-1.75	active
44	ATAD5	0.125	inactive
45	WNT16	1.23	active

Entries listed so far whose target name starts with A or a (4):
Target gene	z-score vs non-targeting control	outcome
ADAM21	1.49	active
ATOH8	-0.449	inactive
AQP12A	-0.138	inactive
ATAD5	0.125	inactive

Further entries:
no.	Target gene	z-score vs non-targeting control	outcome
46	PLXNB3	-0.356	inactive
47	CYB5R1	0.657	inactive
48	FSAF1	0.508	inactive
49	PLXDC1	-1.39	active
50	VSIG4	-2.5	active
51	LTBP2	0.949	inactive
52	PI3	-0.551	inactive
53	S100A13	-1.68	active
54	MIR9-1HG	-0.867	inactive
55	HOXB4	-1.81	active
56	CT47A8	-0.603	inactive
57	MCM3AP	-0.273	inactive
58	CBX5	-0.322	inactive
59	NCLN	-0.99	inactive
60	FAM216A	-1.13	active
61	B4GALT7	-0.647	inactive
62	GLYATL1	-0.814	inactive
63	PDE3A	1.51	active
64	CORT	-1.36	active
65	IL17RD	-0.939	inactive
66	CPSF6	-0.107	inactive
67	NUP43	-1.23	active
68	OR1N1	0.867	inactive
69	MEGF11	0.448	inactive
70	KANSL1	1.46	active
71	ALOX15B	-2.27	active
72	PLEKHA6	-0.662	inactive
73	MCM8	-1.88	active
74	PTAFR	0.622	inactive
75	ACTN3	0.628	inactive
